# According to patent publication US20220081444A1, “6,7-DIHYDRO-4H-PYRAZOLO[1,5-A]PYRAZINE INDOLE-2-CARBOXAMIDES ACTIVE AGAINST THE HEPATITIS B VIRUS (HBV)” (AiCuris GmbH & Co. KG, priority 2018, published 2022):
# The match of structure and compound is tentative.
# How the values were obtained:
# [1] = test system: HepAD38 cells
# [2] = test system: HBV; test: Determination of HBV DNA from the supernatants of HepAD38 cells (anti-HBV activity); details: read-out: Cell Activity (EC50)
smiles,measurement,setting,value
CC(C)(C)OC(=O)N1CCC(C(=O)Nc2cc3n(n2)CCN(C(=O)c2cc4ccccc4[nH]2)C3)CC1,CC50,[1],> 10 µM
same,EC50,[2],< 1 µM
